Pooled drug test results. Numbers come from NIAID ChemDB, via PubChem.

Common to all: growth or infection tests; species: HIV-1

a–b is a range or a potency band. An empty or dashed field is not shown. Neighbouring rows are from separate reports. ECn is the concentration giving n% inhibition of infection, replication or growth.

structure,strain,cells,read by,endpoint,mutations,value
Cc1nc(CN2CCn3c(nc(C(=O)NCc4ccc(F)cc4)c(O)c3=O)C2(C)C)no1,,MT-4,p24,EC95,,<1 µM
COc1ccc(S(=O)(=O)N(CC2CCCC2)C[C@H](O)CN(CCc2ccccc2)C(=O)O[C@H]2CCOC2)cc1,IIIB,CEM,p24,EC90,,1 µM
Cc1cc(CNC(=O)c2nc3n(c(=O)c2O)CCN(CC2CC2)CC3N(C)C(=O)C(=O)N(C)C)ccc1F,,MT-4,p24,EC50,,<1 µM
Cc1cc(S(N)(=O)=O)ccc1NC(=O)COc1ccc(Cl)cc1C(=O)c1cc(Cl)cc(Cl)c1,HXB2,HeLa + HELA CD4+,β-galactosidase,EC50,RT-K103N,<0.01 µM
CCN1CCn2c(nc(C(=O)NCc3ccc(F)c(C)c3)c(O)c2=O)C(N(C)C(=O)C(=O)N(C)C)C1,,MT-4,p24,EC50,,<1 µM
COC(C)C(C)Oc1ncc(-c2cnc(C)c([C@H](OC(C)(C)C)C(=O)O)c2N2CCC(C)(C)CC2)cc1F,NL4-3,MT-2,luminescence,EC50,,0.0034 µM
O=C(c1ccccc1)N(CCc1ccccc1)C[C@H](O)CN(CC1CCCC1)S(=O)(=O)CC1COCO1,IIIB,CEM,p24,EC90,,1 µM
Cc1cc(S(N)(=O)=O)ccc1NC(=O)COc1ccc(Cl)cc1C(=O)c1cccc(C#N)n1,HXB2,HeLa + HELA CD4+,β-galactosidase,EC50,RT-K103N V108I,<0.01 µM
Cc1ncc(-c2cnc(OCC3CCC(C)CC3)c(F)c2)c(N2CCC(C)(C)CC2)c1[C@H](OC(C)(C)C)C(=O)O,NL4-3,MT-2,luminescence,EC50,,0.0174 µM
Cc1cc(C)cc(C(=O)c2cc(Cl)ccc2OCC(=O)Nc2ccc(S(N)(=O)=O)cc2C)c1,HXB2,HeLa + HELA CD4+,β-galactosidase,EC50,RT-K103N,<0.01 µM
Cc1ccc(OCCN(C)c2ccc(-c3cnc(C)c([C@H](OC(C)(C)C)C(=O)O)c3N3CCC(C)(C)CC3)cn2)c(C)c1,NL4-3,MT-2,luminescence,EC50,,0.004 µM
COP(=O)(c1cc(C)cc(CCC#N)c1)c1c(C(N)=O)[nH]c2ccc(Cl)cc12,NL4-3,MT-4,p24 / ELISA,EC50,Y181C,0.0036 µM
COc1cccc(OCCOc2ccc(-c3cnc(C)c([C@H](OC(C)(C)C)C(=O)O)c3N3CCC(C)(C)CC3)nc2)c1,NL4-3,MT-2,luminescence,EC50,,0.0013 µM
O=C(COc1ccc(Cl)cc1C(=O)c1ccccc1)Nc1ccc(-n2cncn2)cc1,HXB2,HeLa + HELA CD4+,β-galactosidase,EC50,RT-K103N,0.011–0.1 µM
Nc1cccc(S(=O)(=O)N(CC(O)CN(NCc2ccccc2)C(=O)c2ccccc2)CC2CCCC2)c1,IIIB,CEM,p24,EC90,,1 µM
CS(=O)(=O)Nc1ccc(NC(=O)COc2ccc(Cl)cc2C(=O)c2ccccc2)cc1,HXB2,HeLa + HELA CD4+,β-galactosidase,EC50,RT-K103N,0.011–0.1 µM
CCCc1cc(=O)oc2c3c(c4c(c12)OC(C)(C)CC4)O[C@@H](C)[C@H](C)[C@@H]3O,Costatolide-resistant (RT L100I T139I),CEM + CEM-SS,XTT,EC50,RT-L100I T139I,>27 µM
CC(C)CN(C(=O)C(=O)C(=O)N(CC(C)C)S(=O)(=O)c1ccc(O)cc1)S(=O)(=O)c1ccccc1,IIIB,CEM,p24,EC50,,<1 µM
Cc1cc(Cl)cc(C(=O)c2cc(Cl)ccc2OCC(=O)Nc2ccc(S(N)(=O)=O)cc2C)c1,HXB2,HeLa + HELA CD4+,β-galactosidase,EC50,RT-Y181C,0.101–1 µM
Cc1cccc(OCCOc2ccc(-c3cnc(C)c([C@H](OC(C)(C)C)C(=O)O)c3N3CCC(C)(C)CC3)nc2)c1,NL4-3,MT-2,luminescence,EC50,,0.0009 µM
CC(C)(C)NC(=O)N(Cc1ccccc1)CC(O)CN(CC1CCCC1)S(=O)(=O)c1ccccc1,IIIB,CEM,p24,EC90,,1 µM
CC1(C)c2nc(C(=O)NCc3ccc(F)cc3)c(O)c(=O)n2CCN1Cc1ccccc1,,MT-4,p24,EC95,,<1 µM
Cc1cc(S(N)(=O)=O)ccc1NC(=O)COc1ccc(Cl)cc1C(=O)c1cc(F)cc(C(F)(F)F)c1,HXB2,HeLa + HELA CD4+,β-galactosidase,EC50,RT-V106A Y181C,0.011–0.1 µM
Cc1cccc(Cl)c1OCCN(C)c1ccc(-c2cnc(C)c([C@H](OC(C)(C)C)C(=O)O)c2N2CCC(C)(C)CC2)nc1,NL4-3,MT-2,luminescence,EC50,,0.004 µM
CC(C)=CCOc1cc(NC(=S)c2ccsc2C)ccc1Cl,4XAZT+Y181C (RT D67N K70R Y181C T215Y K219Q),CEM + CEM-SS,p24,EC50,RT-Y181C,0.1 µM
O=C(NCc1ccc(F)cc1)c1nc2n(c(=O)c1O)CCNC2,,MT-4,p24,EC95,,<50 µM
O=C(COc1ccc(Cl)cc1C(=O)c1ccccc1)Nc1ccc2cn[nH]c2c1,WTRVA,HeLa + HELA CD4+,β-galactosidase,EC50,,<0.01 µM
O=C(NCc1ccc(F)cc1)c1nc2n(c(=O)c1O)CCN(Cc1cocn1)C21CC1,,MT-4,p24,EC50,,<1 µM
COc1ccc(S(=O)(=O)N(CC(C)C)C[C@@H](O)CCN(CC2CCCC2)S(=O)(=O)C2CS(=O)(=O)CC2O)cc1,IIIB,CEM,p24,EC90,,1 µM
Cc1cc(S(N)(=O)=O)ccc1NC(=O)COc1ccc(Cl)cc1C(=O)c1cc(F)cc(F)c1,HXB2,HeLa + HELA CD4+,β-galactosidase,EC50,RT-V108I,<0.01 µM

4 of the rows above, restated:

structure | strain | cells | read by | endpoint | mutations | value
CCN1CCn2c(nc(C(=O)NCc3ccc(F)c(C)c3)c(O)c2=O)C(N(C)C(=O)C(=O)N(C)C)C1 |  | MT-4 | p24 | EC50 |  | <1 µM
O=C(c1ccccc1)N(CCc1ccccc1)C[C@H](O)CN(CC1CCCC1)S(=O)(=O)CC1COCO1 | IIIB | CEM | p24 | EC90 |  | 1 µM
COC(C)C(C)Oc1ncc(-c2cnc(C)c([C@H](OC(C)(C)C)C(=O)O)c2N2CCC(C)(C)CC2)cc1F | NL4-3 | MT-2 | luminescence | EC50 |  | 0.0034 µM
Cc1cc(CNC(=O)c2nc3n(c(=O)c2O)CCN(CC2CC2)CC3N(C)C(=O)C(=O)N(C)C)ccc1F |  | MT-4 | p24 | EC50 |  | <1 µM